A mixed list of measured activities; the numbers were collected in NIAID ChemDB.

Shared fields: whole-cell or culture tests

ECn is the concentration giving n% inhibition of infection, replication or growth.

C[C@H]1[C@H](O)[C@@H](C)/C=C/C=C/C=C/C=C/C=C/C=C/C=C/[C@H](O[C@@H]2O[C@H](C)[C@@H](O)[C@H](N)[C@@H]2O)C[C@@H]2O[C@](O)(C[C@@H](O)C[C@@H](O)CC[C@H](O)[C@@H](O)C[C@@H](O)CC(=O)O[C@H]1C)C[C@H](O)[C@H]2C(=O)O ; agent: Candida rugosa ; strain or isolate: CBS 12 ; read by: broth dilution ; read-out: MIC ; result: 0.07 µg/mL
CN1CCC2=C(CCCC2CCc2ccc(Cl)c(Cl)c2)C1 ; agent: Candida albicans ; strain or isolate: 2381E ; read-out: MIC ; result: 31 µg/mL
O=Cc1cc(O)ccc1O ; agent: Candida parapsilosis ; strain or isolate: ATCC 22019 ; read by: broth dilution / turbidity ; read-out: EC50 ; result: 0.88 µM
COc1cc(C2CC(=O)c3c(O)cc(O)cc3O2)ccc1OCC=C(C)C ; agent: Candida spp. ; strain or isolate: Candida inconspicua ; read by: agar diffusion / agar ; dose: 100 µg/mL ; read-out: zone ; result: 0 mm
CN1CCC2=C(CCCC2CCc2ccccc2)C1 ; agent: Candida albicans ; strain or isolate: 2402E ; read-out: MIC ; result: 31 µg/mL
CC(=O)N1CCN(c2ccc(OC[C@H]3CO[C@](Cn4ccnc4)(c4ccc(Cl)cc4Cl)O3)cc2)CC1 ; agent: Candida guilliermondii ; strain or isolate: 24 clinical isolates ; read by: broth dilution ; read-out: MIC50 ; result: ≤0.031 µg/mL
C[C@H](Cc1ccc(O)c(O)c1)[C@@H](C)Cc1ccc(O)c(O)c1 ; agent: Candida albicans ; strain or isolate: CCC 127-2000 ; read by: broth dilution ; read-out: MIC100 ; result: 250 µg/mL
CC(C)=CCOc1ccc(C2CC(=O)c3c(O)cc(O)cc3O2)cc1O ; agent: Candida krusei ; read by: agar diffusion / agar ; dose: 100 µg/mL ; read-out: zone ; result: 0 mm
C[C@@H](c1ncncc1F)[C@](O)(Cn1cncn1)c1ccc(F)cc1F ; agent: Candida guilliermondii ; strain or isolate: 24 clinical isolates ; read by: broth dilution ; read-out: MIC90 ; result: 0.125 µg/mL
O=C(O)/C=C/c1ccccc1 ; agent: Candida parapsilosis ; strain or isolate: PYCC 2545 ; read by: broth dilution / turbidity ; read-out: EC50 ; result: 0.18 µM
CN1CCC2=C(CCCC2CCc2ccc(Cl)cc2Cl)C1 ; agent: Candida albicans ; strain or isolate: 2005E ; read-out: MIC ; result: 8 µg/mL
c1ccc([Se][Se]c2ccccc2)cc1 ; agent: Candida glabrata ; strain or isolate: ATCC 10231 ; read by: broth dilution ; read-out: MIC ; result: >64 µg/mL
O=Cc1cccc(O)c1O ; agent: Candida parapsilosis ; strain or isolate: ATCC 22019 ; read by: broth dilution / turbidity ; read-out: EC50 ; result: 0.08 µM
C[C@@H]1[C@H](O)[C@@H](C)/C=C/C=C/CC/C=C/C=C/C=C/C=C/C(O[C@H]2O[C@H](C)[C@@H](O)[C@H](N)[C@@H]2O)CC2O[C@](O)(CC(O)C(O)CCC(O)CC(O)CC(O)CC(=O)O[C@H]1C)CC(O)C2C(=O)O ; agent: Candida krusei ; read by: agar diffusion / agar ; dose: 100 µg/mL ; read-out: zone ; result: 0 mm
Cc1c(OCC(F)(F)F)ccnc1CS(=O)c1nc2ccccc2[nH]1 ; agent: Candida spp. ; strain or isolate: Clinical isolates ; read-out: MIC ; result: 128 µg/mL
C[C@@H](c1nc(-c2ccc(C#N)cc2)cs1)[C@](O)(Cn1cnnc1)c1ccc(F)cc1F ; agent: Candida albicans ; strain or isolate: Isogenic isolate 2 MDR1 (12X) ; read-out: MIC ; result: 0.004 µg/mL
OC(Cn1cncn1)(Cn1cncn1)c1ccc(F)cc1F ; agent: Candida albicans ; strain or isolate: YL 325 ; read by: broth dilution ; read-out: MIC ; result: 512 µg/mL
COc1ccc(CCC2(CCc3ccc(OC)c(OC)c3)CCCC3=C2CCN(C)C3)cc1OC ; agent: Candida albicans ; strain or isolate: C316 ; read-out: MIC ; result: 125 µg/mL
CCCCCCCCC[C@@H](O)[C@H](C)N ; agent: Candida spp. ; strain or isolate: MTCC 1962 ; read-out: MIC ; result: 9.9 µM
Clc1ccc(CCC2CCCc3cnccc32)cc1 ; agent: Candida albicans ; strain or isolate: 2381E ; read-out: MIC ; result: 8 µg/mL
O=C(OC1Cc2c(O)cc(O)cc2OC1c1cc(O)c(O)c(O)c1)c1cc(O)c(O)c(O)c1 ; agent: Candida tropicalis ; strain or isolate: Clinical isolate 2 ; read by: broth dilution ; read-out: MIC50 ; result: >128 µg/mL
C[C@@H]1[C@H](O)[C@@H](C)/C=C/C=C/CC/C=C/C=C/C=C/C=C/C(O[C@H]2O[C@H](C)[C@@H](O)[C@H](N)[C@@H]2O)CC2O[C@](O)(CC(O)C(O)CCC(O)CC(O)CC(O)CC(=O)O[C@H]1C)CC(O)C2C(=O)O ; agent: Candida tropicalis ; strain or isolate: LM 759 ; read by: broth dilution ; read-out: MIC100 ; result: 64 µg/mL
CN1CCC2=C(CCCC2CCc2ccc(F)cc2)C1 ; agent: Candida albicans ; strain or isolate: 1208E ; read-out: MIC ; result: 31 µg/mL

Again, the opening 2 rows:

compound,agent,strain or isolate,read by,dose,read-out,result
C[C@H]1[C@H](O)[C@@H](C)/C=C/C=C/C=C/C=C/C=C/C=C/C=C/[C@H](O[C@@H]2O[C@H](C)[C@@H](O)[C@H](N)[C@@H]2O)C[C@@H]2O[C@](O)(C[C@@H](O)C[C@@H](O)CC[C@H](O)[C@@H](O)C[C@@H](O)CC(=O)O[C@H]1C)C[C@H](O)[C@H]2C(=O)O,Candida rugosa,CBS 12,broth dilution,,MIC,0.07 µg/mL
CN1CCC2=C(CCCC2CCc2ccc(Cl)c(Cl)c2)C1,Candida albicans,2381E,,,MIC,31 µg/mL

Lines come from different laboratories, so protocols vary. Zone: diameter of growth inhibition. A number after MIC or MFC names an inhibition level or a share of isolates. Blank or dashed fields: not listed here.